From ChEMBL document CHEMBL3988442, “University of Dundee, Small-Polar-MMV Screening Library” (2021).

Mtb glucose medium: 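Phenotypic screen: M. tuberculosis growth, glucose 7H9 medium, 3 days; the read-out is not stated. Tested at 500 µM. Direction is inferred from retests: higher values go with more growth inhibition. Of about 18,000 compounds tested this way, about 1,400 (7.9%) reached 50% or more in at least one test.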
Mtb cholesterol medium: 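Growth of Mycobacterium tuberculosis over 4 days (cholesterol / DPPC medium with tyloxapol); the read-out is not stated. Tested at 500 µM. Higher reads as more growth inhibition (inferred: compounds with an IC50 in retests scored well above the rest). Size under these conditions: about 18,000 compounds, about 900 of them at 50% or above in at least one test.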

Results are given as percent effect. How 0% and 100% were set is not recorded. Most values in the screen are low, and negative values occur. Many other results are left out here, so strong results are more common than in the screen. A dash means the value is not listed here; it may have been measured.

Compound,Mtb glucose medium,Mtb cholesterol medium
CCCc1nccn1CCN1CCCS1(=O)=O,-,-2.84%
CN1CCC(CCO)C1 (stereo not given),9.367%,-
CN(C)C(=O)c1occc1Br,8.509%,-5.043%
CC(N)C(=O)Nc1ccc(-n2cncn2)cc1 (stereo not given),22.22%,-
COc1ccc(C2CCCN2CC(=O)NC(N)=O)cc1 (stereo not given),24.22%,-3.096%
CNC(=O)CSc1nc2cc(F)c(F)cc2[nH]1,22.13%,-2.249%
Nc1ccnc(-c2ccccc2)n1,23.47%,-
CC(C)(CNc1nc2ccccc2o1)C(N)=O,31.07%,-
OC1CCN(Cc2ccccc2)C2(CC2)C1 (stereo not given),-,-6.315%
CC(C)(CNC(=O)NCCc1cccc(F)c1)C(N)=O,25.91%,-
c1cc(CC2CCNC2)ccn1 (stereo not given),-3.364%,-
Nc1cnccc1NC(=O)c1ccccc1,-,-29.78%
CC(C)(C)C(=O)Nc1nc(-c2ccncc2)n[nH]1,-0.4811%,-
C[S+]([O-])c1nncn1CCCOc1ccc(C#N)cc1 (stereo not given),19.55%,-
NC(=O)Cc1ccc(NC(=O)CC(F)(F)F)cc1,-,-31.88%
N#CC1(NC(=O)CN2CCC(CO)CC2)CCCCC1,12.38%,-
CC1(C)CN(C(=O)c2cc(C3CC3)on2)CCO1,34.83%,26.2%
CC(=O)N1CCOc2ccccc21,-,-12.48%
COc1ccc(CCN)c(F)c1,45.94%,14.02%
COC(=O)C(C)(O)Cn1ccccc1=O (stereo not given),-,-10.17%
Cc1ccc(C)c(OC(C)C(=O)NCCS(C)(=O)=O)c1 (stereo not given),-,8.321%
CC1CN(CC(=O)Nc2ccn(C)n2)CCCO1 (stereo not given),2.271%,-
CN(C)C(=O)CN1CCOC(c2ccccc2)C1 (stereo not given),24.16%,-
CCCC1SCCN1C(=O)c1ccc2nnnn2c1 (stereo not given),-,-2.704%
CS(=O)(=O)N1CCC[C@H]1C(=O)NCCSc1cnn[nH]1,-,11.87%
CCOc1nc(N2CC(O)C2)ncc1Br,-19%,-
CSCc1noc(CN2C[C@H](C3CC3)[C@@H](N)C2)n1,17.45%,-
O=C(CNC1CC1)NCCc1ccc(F)cc1,67%,65.21%
Cc1nc(C(N)c2ccc(Cl)c(F)c2)no1 (stereo not given),31.25%,-
NCc1ccncc1OCc1ccccc1,55.5%,39.27%
CN(Cc1ccsc1)C(=O)c1nccnc1N,20.96%,-
Cc1cccc(NCCNC(=O)c2ccccc2)n1,56.09%,15.54%
O=C(c1ccco1)N1CCCC1c1ccco1 (stereo not given),-,-19.42%
CSc1ncc(CN2CCC(NC(C)=O)C2)cn1 (stereo not given),-,3.767%
Cn1cc(CC(N)CO)cn1 (stereo not given),-,3.529%
CC(Cc1ccccc1F)NC1(C(N)=O)CC1 (stereo not given),18.55%,-
CCC1(CO)CCCN(CCn2cc(Cl)cn2)C1 (stereo not given),58.07%,83.03%
Cc1csc(CCNC(=O)C2CCCO2)n1 (stereo not given),11%,-10.38%
Cn1cc(N)cc(Cl)c1=O,-,-136.5%
Clc1cncc(NCC2CN(C3CC3)CCO2)n1 (stereo not given),52.28%,-
Cc1ccccc1C(=O)N1CC(=O)Nc2ccccc21,-,12.54%
O=C(NCc1ccnc(N2CCCC2)c1)c1ccsc1,95.73%,107.4%
COc1cccc(N2CCNCC2=O)c1,-11.25%,-
CNS(=O)(=O)c1ccc(C(=O)Nc2ccc(F)cc2)o1,54.61%,43.9%
Cc1cc(=O)n2nccc2[nH]1,-,-7.83%
COC(=O)c1cnn(-c2ccccc2)n1,-,-11.38%
CC(C)(C)C1CNCCO1 (stereo not given),-,2.471%
O=S(=O)(CC(O)CO)C1Cc2ccccc2C1 (stereo not given),-,-2.193%
Cc1cnc(N2CCNCC2)s1,16.93%,0.8037%
Cc1cc(C(=O)N(C)Cc2cccc(C#N)c2)[nH]n1,-1.528%,-
N#Cc1ccccc1OCCNCC1CCCO1 (stereo not given),-,19.76%
CCN(Cc1ccc(Cl)c(Cl)c1)C(=O)CCS(C)(=O)=O,62.17%,60.35%
CS(=O)(=O)CCCNc1ccc2c(c1)C(=O)CCC2,38.96%,-
CNCc1nncn1C,-3.679%,-
CNCC(=O)Nc1cc(F)cc(F)c1,20.29%,3.054%
CN(C)C(=O)CNc1ccc(OC(C)(C)C)cc1,-4.374%,-
Cc1n[nH]c(SCC(=O)NCCN2CCCC2=O)n1,-,8.224%
CC(NS(C)(=O)=O)C(=O)NCc1nnc2n1CCCC2 (stereo not given),-,11.67%
CS(=O)(=O)CCN1CCSC2(CCCCC2)C1,-,26.43%
Cc1nc2ccc(CO)cc2s1,3.767%,-
CC(C)CC(CN)CO (stereo not given),-,-6.246%
CCC(N)C(=O)N1CCN(c2ccc(F)cc2Cl)CC1 (stereo not given),78.96%,57.35%
CC(C)OCc1nnc(C(C)N)o1 (stereo not given),-,-10.01%
CC(C)(C)OC(=O)N1CC2(CCC(CN)O2)C1 (stereo not given),67.7%,-
CC(C)c1cc(N)n(C(C)C)n1,12.64%,-
COc1cccc(CN(C)C(=O)c2cccnc2)n1,19.69%,-0.8347%
Cc1ncn(CC(=O)N2CCCC(O)(CO)CC2)c1C (stereo not given),-2.178%,-
CCC1(CO)CCCN(CCCC(N)=O)C1 (stereo not given),4.111%,-
N#Cc1ccnc(N2CCOCC2)c1,7.55%,-
Cc1c(C(=O)NC[C@H]2CCCN2)n(C)c2ccccc12,50.21%,51.09%
CC(NCCCN1CCCC1)C(=O)NC1CCCC1 (stereo not given),26.11%,-
CCS(=O)(=O)CC(C)NCc1ccco1 (stereo not given),0.7801%,-
CC(C)Cc1cc(N)sn1,21.75%,-

For reference, 6 entries once more:

For CNCc1nncn1C the result was Mtb glucose medium: -3.679%.
For CC(C)Cc1cc(N)sn1 the result was Mtb glucose medium: 21.75%.
For N#Cc1ccnc(N2CCOCC2)c1 the result was Mtb glucose medium: 7.55%.
For COc1cccc(N2CCNCC2=O)c1 the result was Mtb glucose medium: -11.25%.
For CN(C)C(=O)c1occc1Br the result was Mtb glucose medium: 8.509%; Mtb cholesterol medium: -5.043%.
For Cn1cc(N)cc(Cl)c1=O the result was Mtb cholesterol medium: -136.5%.